In publication PMC7105911 (Journal of Molecular Biology, 2011) one finds Kd, koff and kon data, which are given here for 1 molecule.

Common to all, as to assay: SPR
Test [1] concerns the target T1, 2F5 peptide ELDKWA (gp41 662-667) (HIV-1 gp41 662-667, HXB2 numbering; …).
T1 chain: ELDKWA

In test [2] the target is T2, 2F5 peptide EQELLELDKWASLW (full-length 2F5 epitope, gp41 657-670) (Human immunodeficiency virus type 1, …).
T2 chain: EQELLELDKWASLW

For test [3], the target named is T3, 2F5 peptide LELDKWA (gp41 661-667) (HIV-1 gp41 661-667, HXB2 numbering; …).
T3 chain: LELDKWA

In test [4] the target is T2, 2F5 peptide EQELLELDKWASLW (full-length …).

Values joined by “and” are separate entries in the source; they are usually repeats but may differ in a detail not shown here. Equal entries are not always repeated. Where two headings read alike, the source gives them in different places.

B1: 2F5 monoclonal antibody (2F5 IgG) (antibody, V domains shown)
VH: RITLKESGPPLVKPTQTLTLTCSFSGFSLSDFGVGVGWIRQPPGKALEWLAIIYSDDDKRYSPSLNTRLTITKDTSKNQVVLVMTRVSPVDTATYFCAHRRGPTTLFGVPIARGPVNAMDVWGQGITVTISS
VL: ALQLTQSPSSLSASVGDRITITCRASQGVTSALAWYRQKPGSPPQLLIYDASSLESGVPSRFSGSGSGTEFTLTISTLRPEDFATYYCQQLHFYPHTFGGGTRVDVR
With B1, the equilibrium dissociation constant (Kd) – broadly, the equilibrium constant for the complex coming apart – is 2300 nM in test [1]; 4.1 nM in test [2]; 144 nM and 142 nM in test [3]; 4.5 nM in test [4]. The figures for the dissociation rate constant (koff) in test [1], in test [2] and in test [3] were 0.185 s⁻¹, 0.00606 s⁻¹ and 0.101 s⁻¹, respectively. Also, the figures for the kon in test [1], in test [2] and in test [3] were 80100 M⁻¹ s⁻¹, 1.45e+06 M⁻¹ s⁻¹ and 700000 M⁻¹ s⁻¹, respectively.
